Assay results as given in ChEMBL document CHEMBL4190388, “Discovery and Optimization of Indolyl-Containing 4-Hydroxy-2-Pyridone Type II DNA Topoisomerase Inhibitors Active against Multidrug Resistant Gram-negative Bacteria” (J Med Chem, 2018).

Assays:
[1] = Selectivity ratio of MIC for fluoroquinolone resistant Escherichia coli SKM18 to MIC for wild type Escherichia coli ATCC 25922; type: functional
Outline: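 MICs were determined by CLSI guidelines with growth in brain–heart–infusion medium, against fluoroquinolone-resistant E. coli SKM18 and wild-type E. coli ATCC 25922. The ratio is SKM18 MIC over ATCC 25922 MIC.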

[2] = Selectivity ratio of MIC for quinolone resistant Escherichia coli isolate ELZ4251 harboring gyrA/parC mutant to MIC for wild type Escherichia coli ATCC 25922; type: functional

SMILES	Ratio [1]	Ratio [2]
CN(C)Cc1cc2cc3c(cc2n1C)CCCc1c-3[nH]c(=O)c(C(=O)O)c1O	2 to 4	2 to 4
CC(C)NCc1cc2cc3c(cc2n1C)CCCc1c-3[nH]c(=O)c(C(=O)O)c1O	2 to 4	2 to 4
CNCc1cc2cc3c(cc2n1C)CCCc1c-3[nH]c(=O)c(C(=O)O)c1O	2 to 4	2 to 4
Cn1c(CN2CCCC2)cc2cc3c(cc21)CCCc1c-3[nH]c(=O)c(C(=O)O)c1O	2 to 4	2 to 4
Cn1c(CNC2(C)CCC2)cc2cc3c(cc21)CCCc1c-3[nH]c(=O)c(C(=O)O)c1O	2 to 4	2 to 4
